## Potato spindle tuber viroid, loop 15: variant abundance in plants

Source: Wu et al. 2024 (doi:10.1371/journal.ppat.1012142), supplementary data.

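A pool of all variants was put on leaves of three Nicotiana benthamiana plants. Progeny were sequenced from the inoculated region (day 5), the margin of the inoculated leaf (day 10) and systemic leaves (day 12).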

The pool varies loop 15 of the PSTVd intermediate strain in the pattern GGAAACCGNNNNNNC; wild type is GGAAACCGCUACUAC (upper and lower strand joined, each 5' to 3', the first 7 letters being the upper strand, closing pairs included).

Values are reads per thousand in the sample; higher means more abundant, 0 means not found.
Each site shows the three plants.
"Pool" is the share in the plasmid pool used as inoculum, on the same scale.
The inoculated region was read from the minus strand, the other sites from the plus strand.

* GGAAACCGGAUACAC (pool 0.320) -> inoculated region 0.0655 / 0.0803 / 0.152; leaf margin 0 / 0 / 0.0401; systemic leaves 0 / 0 / 0
* GGAAACCGUCCAUCC (pool 0.208) -> inoculated region 0.0983 / 0.112 / 0.190; leaf margin 0.0162 / 0.0223 / 0.0200; systemic leaves 0.0161 / 0 / 0
* GGAAACCGACCAUCC (pool 0.256) -> inoculated region 0.147 / 0.0643 / 0.0952; leaf margin 0 / 0.0223 / 0; systemic leaves 0 / 0 / 0
* GGAAACCGGCACGUC (pool 0.272) -> inoculated region 0.0819 / 0.112 / 0.133; leaf margin 0 / 0.0668 / 0.0200; systemic leaves 0 / 0 / 0
* GGAAACCGGAGACGC (pool 0.288) -> inoculated region 0.131 / 0.112 / 0.0762; leaf margin 0.0323 / 0 / 0.0200; systemic leaves 0 / 0 / 0
* GGAAACCGGCACCUC (pool 0.176) -> inoculated region 0.0819 / 0.0964 / 0.0952; leaf margin 0.0162 / 0 / 0; systemic leaves 0 / 0 / 0
* GGAAACCGUUUCUUC (pool 0.240) -> inoculated region 0.278 / 0.305 / 0.476; leaf margin 0.113 / 0.134 / 0.100; systemic leaves 0.0644 / 0 / 0
* GGAAACCGACUUUUC (pool 0.240) -> inoculated region 0.213 / 0.209 / 0.114; leaf margin 0.0323 / 0 / 0.0401; systemic leaves 0.0161 / 0 / 0
* GGAAACCGAAUAACC (pool 0.240) -> inoculated region 0.115 / 0.161 / 0.0952; leaf margin 0 / 0 / 0; systemic leaves 0.0322 / 0 / 0.0228
* GGAAACCGAGCGUAC (pool 0.272) -> inoculated region 0.377 / 0.402 / 0.324; leaf margin 0.0647 / 0.0891 / 0.140; systemic leaves 0.0322 / 0.0151 / 0.0456
* GGAAACCGCCCGAAC (pool 0.192) -> inoculated region 0.213 / 0.305 / 0.343; leaf margin 0.178 / 0.0668 / 0.100; systemic leaves 0.0483 / 0 / 0
* GGAAACCGGAAAGGC (pool 0.144) -> inoculated region 0.0983 / 0.145 / 0.171; leaf margin 0 / 0 / 0.0200; systemic leaves 0 / 0 / 0
* GGAAACCGGCUCCGC (pool 0.256) -> inoculated region 0.115 / 0.0964 / 0.0571; leaf margin 0 / 0 / 0; systemic leaves 0 / 0 / 0
* GGAAACCGGCCGCUC (pool 0.256) -> inoculated region 0.0819 / 0.0964 / 0.0571; leaf margin 0 / 0 / 0; systemic leaves 0.0161 / 0 / 0
* GGAAACCGAACUCAC (pool 0.192) -> inoculated region 0.164 / 0.257 / 0.114; leaf margin 0 / 0 / 0.0401; systemic leaves 0 / 0 / 0
* GGAAACCGACGAGAC (pool 0.240) -> inoculated region 0.115 / 0.0964 / 0.0571; leaf margin 0 / 0.0223 / 0.0801; systemic leaves 0 / 0 / 0
* GGAAACCGUGCGUGC (pool 0.176) -> inoculated region 0.541 / 0.369 / 0.438; leaf margin 0.0808 / 0.0223 / 0.180; systemic leaves 0.0483 / 0.0303 / 0.0912
* GGAAACCGGUUCUCC (pool 0.256) -> inoculated region 0.0655 / 0.129 / 0.0952; leaf margin 0 / 0.0223 / 0.0200; systemic leaves 0 / 0 / 0
* GGAAACCGUUUUGCC (pool 0.240) -> inoculated region 0.115 / 0.0803 / 0.209; leaf margin 0.0162 / 0 / 0.0401; systemic leaves 0 / 0 / 0
* GGAAACCGGGGAACC (pool 0.208) -> inoculated region 0.147 / 0.112 / 0.171; leaf margin 0.0162 / 0 / 0; systemic leaves 0 / 0 / 0
* GGAAACCGUGCUACC (pool 0.208) -> inoculated region 0.147 / 0.145 / 0.0952; leaf margin 0 / 0 / 0.0401; systemic leaves 0 / 0 / 0
* GGAAACCGUAAUUAC (pool 0.160) -> inoculated region 0.524 / 0.546 / 0.628; leaf margin 0.162 / 0.0668 / 0.240; systemic leaves 0.0322 / 0.0605 / 0.205
* GGAAACCGUUUCCAC (pool 0.192) -> inoculated region 0.0491 / 0.0964 / 0.0381; leaf margin 0 / 0 / 0.0200; systemic leaves 0.0161 / 0 / 0
* GGAAACCGAUGCAUC (pool 0.208) -> inoculated region 0.115 / 0.0482 / 0.0381; leaf margin 0 / 0 / 0.0200; systemic leaves 0 / 0 / 0
* GGAAACCGUCGGACC (pool 0.256) -> inoculated region 0.180 / 0.129 / 0.0952; leaf margin 0.0162 / 0 / 0.0200; systemic leaves 0 / 0 / 0
* GGAAACCGAUCUCCC (pool 0.288) -> inoculated region 0.0655 / 0.0643 / 0.114; leaf margin 0.0162 / 0 / 0.0601; systemic leaves 0 / 0 / 0
* GGAAACCGCCAAGUC (pool 0.368) -> inoculated region 0.328 / 0.321 / 0.190; leaf margin 0.0808 / 0.0891 / 0.100; systemic leaves 0.0644 / 0 / 0

The opening 2 entries, copied out:

- GGAAACCGGAUACAC (pool 0.320) -> inoculated region 0.0655 / 0.0803 / 0.152; leaf margin 0 / 0 / 0.0401; systemic leaves 0 / 0 / 0
- GGAAACCGUCCAUCC (pool 0.208) -> inoculated region 0.0983 / 0.112 / 0.190; leaf margin 0.0162 / 0.0223 / 0.0200; systemic leaves 0.0161 / 0 / 0

Samples held 43,870 to 66,106 reads, so the smallest values rest on one or two reads.
Wild type was 33.9 per thousand in the pool and the most common sequence in every sample (inoculated region 202, 200, 159; leaf margin 724, 746, 710; systemic leaves 856, 883, 880).
Sequences that differ at fixed positions probably stem from PCR or sequencing errors, and defective variants can be carried along by functional ones.